Results taken from patent publication US6514997B2, “Antipicornaviral compounds and compositions, their pharmaceutical uses, and materials for their synthesis” (Agouron Pharmaceuticals, Inc., priority 1999, dated 2003).

Key:
[1] = tested on: strains of human rhinovirus (HRV); test: Antirhinoviral H1-HeLa cell culture assay (XTT cell protection, EC50), other HRV strains; format: cell-based, human rhinovirus in H1-HeLa cells
Method: (§1) Antirhinoviral H1-HeLa Cell Culture Assay:
In this cell protection assay, the ability of compounds to protect cells against HRV infection was measured by the XTT dye reduction method, which is described in Weislow et al., J. Natl. Cancer Inst. (1989), vol. 81, 577-586. H1-HeLa cells were infected with HRV-14 at a multiplicity of infection (m.o.i.) of 0.13 (virus particles/cell) or mock-infected with medium only. Infected or mock-infected cells were resuspended at 8×10^5 cells per mL, and incubated with appropriate concentrations of the compounds to be tested. Two days later, XTT/PMS was added to test plates and the amount of formazan produced was quantified spectrophotometrically at 450/650 nm. The EC50 value was calculated as the concentration of compound that increased the percentage of formazan production in compound-treated, virus-infected cells to 50% of that produced by compound-free, mock-infected cells. The 50% cytotoxic dose (CC50) was calculated as the concentration of compound that decreased the percentage of formazan produced in compound-treated, mock-infected cells to 50% of that produced by compound-free, mock-infected cells. The therapeutic index (TI) was calculated by dividing the CC50 value by the EC50 value.
(§2) All strains of human rhinovirus (HRV) for use in this assay were purchased from American Type Culture Collection (ATCC), except for HRV serotype-14 (produced from the infectious cDNA clone constructed by Dr. Robert Rueckert, Institute for Molecular Virology, University of Wisconsin, Madison, Wis.). HRV stocks were propagated and viral assays were performed in H1-HeLa cells (ATCC). Cells were grown in minimal essential medium with 10% fetal bovine serum, available from Life Technologies (Gaithersburg, Md.).

HRV-14 = test: Antirhinoviral H1-HeLa cell culture assay (XTT cell protection, EC50), HRV-14; format: cell-based, human rhinovirus (HRV) serotype-14 in H1-HeLa cells
Method: as §1
In this cell protection assay, the ability of compounds to protect cells against HRV infection was measured by the XTT dye reduction method, which is described in Weislow et al., J. Natl. Cancer Inst. […] H1-HeLa cells were infected with HRV-14 at a multiplicity of infection (m.o.i.) of 0.13 (virus particles/cell) or mock-infected with medium only. Infected or mock-infected cells were resuspended at 8×10^5 cells per mL, and incubated with appropriate concentrations of the compounds to be tested. Two days later, XTT/PMS was added to test plates and the amount of formazan produced was quantified spectrophotometrically at 450/650 nm. […] The therapeutic index (TI) was calculated by dividing the CC50 value by the EC50 value.
as §2

Row | Structure (SMILES) | TI (HRV-14) | also measured
1 | C#CC[C@@H](C(=O)N[C@H](/C=C/C(=O)OCC(C)(C)C)C[C@@H]1CCNC1=O)n1cccc(NC(=O)c2cc(C)on2)c1=O (relative stereo) [Compound 32, trans-(2′S,3″″S,4S)-4-(2′-{3″-[(5′″-Methylisoxazole-3′″-carbonyl)amino]-2″-oxo-2″H-pyridin-1″-yl}-pent-4′-ynoylamino)-5-(2″″-oxopyrrolidin-3″″-yl)pent-2-enoic acid 2,2-Dimethylpropyl Ester] | >79 | TI ([1]; HRV-1A): >55; TI ([1]; HRV-2): >95; TI ([1]; HRV-3): >169; TI ([1]; HRV-9): >20; TI ([1]; HRV-10): >64; TI ([1]; HRV-16): >54; TI ([1]; HRV-25): >18; TI ([1]; HRV-39): >24; TI ([1]; HRV-87): >303
2 | CCC(C(=O)N[C@H](/C=C/C(=O)OCC(C)(C)C)C[C@@H]1CCNC1=O)n1cccc(NC(=O)c2cc(C)on2)c1=O (relative stereo) [Compound 42, trans-(2′S,3′″″S,4S)-4-[2′-(3″-{[1′″-(5″″-Methylisoxazol-3″″-yl)methanoyl]amino}-2′″-oxo-2′″H-pyridin-1′″-yl)butanoylamino]-5-(2′″″-oxopyrrolidin-3′″″-yl)pent-2-enoic Acid 2,2-Dimethylpropyl Ester] | >59 | TI ([1]; HRV-2): >62; TI ([1]; HRV-3): >65; TI ([1]; HRV-9): >19; TI ([1]; HRV-16): >24; TI ([1]; HRV-25): >16; TI ([1]; HRV-39): >63
3 | CCOC(=O)/C=C/[C@H](C[C@@H]1CCNC1=O)NC(=O)[C@H](Cc1ccccc1)n1ccc2cc[nH]c2c1=O [Compound 3] | >8 | 
4 | CCOC(=O)/C=C/[C@H](CCC(N)=O)NC(=O)[C@H](Cc1ccccc1)n1cccc(NC(C)=O)c1=O [Compound 8, trans-(2′S,4S)-4-[2′-(3″-Acetylamino-2″-oxo-2″H-pyridin-1″-yl)-3′-phenypropionylamino]-6-carbamoylhex-2-enoic Acid Ethyl Ester] | >11 | 
5 | CCOC(=O)/C=C/[C@H](CCC(N)=O)NC(=O)[C@H](Cc1ccccc1)n1cccc(NC(=O)C(C)(C)C)c1=O [Compound 9, trans-(2′S,4S)-6-Carbamoyl-4-{2′-[3″-(2′″,2′″-dimethylpropionylamino)-2″-oxo-2″H-pyridin-1″-yl]-3′-phenylpropionylamino}hex-2-enoic Acid Ethyl Ester] | >19 | 
6 | CCOC(=O)/C=C/[C@H](CCC(N)=O)NC(=O)[C@H](Cc1ccccc1)n1ccc(C)c(NC(=O)OCc2ccccc2)c1=O [Compound 12, trans-(2′S,4S)-4-[2′-(3″-Benzyloxycarbonylamino-4″-methyl-2″-oxo-2″H-pyridin-1″-yl)-3′-phenylpropionylamino]-6-carbamoylhex-2-enoic Acid Ethyl Ester] | >133 | 
7 | CCOC(=O)/C=C/[C@H](CCC(N)=O)NC(=O)[C@H](CC1CCCCC1)n1cccc(NC(=O)OCc2ccccc2)c1=O [Compound 15, trans-(2′S,4S)-4-[2′-(3″-Benzyloxycarbonylamino-2″-oxo-2″H-pyridin-1″-yl)-3′-cyclohexylpropionylamino]-6-carbamoyl-hex-2-enoic Acid Ethyl Ester] | >56 | 
8 | O=C1OCC/C1=C\[C@H](C[C@@H]1CCNC1=O)NC(=O)[C@H](Cc1ccc(F)cc1)n1cccc(NC(=O)C2CCCC2)c1=O [Compound 16, trans-(2′″S,2′″S,3′″″S)-Cyclopentanecarboxylic acid(1-{2′-(4″-fluorophenyl)-1′-[2′-(2″″-oxo-dihydrofuran-3″″-ylidene)-1-(2′″″-oxopyrrolidin-3′″″-ylmethyl)ethylcarbamoyl]ethyl}-2-oxo-1,2-dihydropyridin-3-yl)amide] | >31 | 
9 | CCOC(=O)/C=C/[C@H](CCC(N)=O)NC(=O)[C@H](Cc1ccccc1)n1ccc(C)c(NC(=O)c2cc(C)on2)c1=O [Compound 18, trans-(2′S,4S)-6-Carbamoyl-4-(2′-{4″-methyl-3″-[(5′″-methylisoxazole-3′″-carbonyl)amino]-2″-oxo-2″H-pyridin-1″-yl}-3′-phenylpropionylamino)hex-2-enoic Acid Ethyl Ester] | >80 | 
10 | CCOC(=O)/C=C/[C@H](C[C@@H]1CCNC1=O)NC(=O)[C@H](Cc1ccccc1)n1cccc(NC(=O)OCc2ccccc2)c1=O [Compound 19, trans-(2′S,3′″S,4S)-4-[2′-(3″-Benzyloxy-carbonylamino-2″-oxo-2″H-pyridin-1″-yl)-3′-phenylpropionylamino]-5-(2′″-oxopyrrolidin-3′″-yl)pent-2-enoic Acid Ethyl Ester] | >333 | 
11 | Cc1cc(C(=O)Nc2cccn([C@@H](Cc3ccc(F)cc3)C(=O)N[C@H](/C=C3\CCOC3=O)C[C@@H]3CCNC3=O)c2=O)no1 [Compound 20, trans-(2″S,2″″S,3″″″S)-5-Methylisoxazole-3-carboxylic Acid (1′-{2″-(4′″-fluorophenyl)-1″-[2″″-(2′″″-oxodihydrofuran-3′″″-ylidene)-1″″-(2″″″oxopyrrolidin-3″″″-ylmethyl)ethylcarbamoyl]ethyl}-2′-oxo-1′,2′-dihydropyridin-3′-yl)amide] | >667 | 
12 | CCOC(=O)/C=C/[C@H](C[C@H]1CCNC1=O)NC(=O)[C@H](Cc1ccccc1)n1cccc(NC(=O)OCc2ccccc2)c1=O [Compound 21, trans-(2′S,3′″R,4S)-4-[2′-(3″-Benzyloxycarbonylamino-2″-oxo-2″H-pyridin-1″-yl)-3′-phenylpropionylamino]-5-(2′″-oxopyrrolidin-3′″-yl)pent-2-enoic Acid Ethyl Ester] | >21 | 
13 | CCOC(=O)/C=C/[C@H](C[C@@H]1CCNC1=O)NC(=O)Cn1cccc(NC(=O)c2cc(C)on2)c1=O [Compound 22, trans-(4S,3″″S)-4-(2′-{3″-[(5′″-Methylisoxazole-3′″-carbonyl)amino]-2″-oxo-2″H-pyridin-1″-yl}acetylamino)-5-(2″″-oxopyrrilidin-3″″-yl)pent-2-enoic Acid Ethyl Ester] | >10 | 
14 | O=C1OCC/C1=C\[C@H](C[C@@H]1CCNC1=O)NC(=O)[C@H](Cc1ccc(F)cc1)n1cccc(NC(=O)c2cc(Cl)on2)c1=O [Compound 23, trans-(2″S,2″S,3″″″S)-5-Chloroisoxazole-3-carboxylic Acid (1′-{2″-(4′″-fluorophenyl)-1″-[2″″-(2′″″-oxodihydrofuran-3′″″-ylidene)-1″″-(2″″″-oxopyrrolidin-3″″″-ylmethyl)ethylcarbamoyl]ethyl}-2′-oxo-1′,2′′-dihydropyridin-3′-yl)amide] | >156 | 
15 | CCOC(=O)/C=C/[C@H](CCC(N)=O)NC(=O)[C@H](Cc1ccccc1)n1cccc(NC(=O)c2cc(Cl)on2)c1=O [Compound 30, trans-(2′S,4S)-6-Carbamoyl-4-(2′-{3″-[(5′″-chloroisoxazole-3′″-carbonyl)amino]-2″-oxo-2″H-pyridin-1″-yl}-3′-phenylpropionylamino)hex-2-enoic Acid Ethyl Ester] | >416 | 
16 | CCOC(=O)/C=C/[C@H](CCC(N)=O)NC(=O)[C@@H]1CCc2ccc(NC(=O)OCc3ccccc3)c(=O)n21 [Compound 36, trans-(3′S,4S)-4-[(6′-Benzyloxycarbonylamino-5′-oxo-1′,2′,3′,5′-tetrahydroindolizine-3′-carbonyl)amino]-6-carbamoylhex-2-enoic Acid Ethyl Ester] | >11 | 
17 | Cc1cc(C(=O)Nc2ccc3n(c2=O)[C@H](C(=O)N[C@H](/C=C2\CCOC2=O)C[C@@H]2CCNC2=O)CC3)no1 [Compound 38, trans-(2″S,3S,3′″S)-6-[(5′-Methylisoxazole-3′-carbonyl)amino]-5-oxo-1,2,3,5-tetrahydroindolizine-3-carboxylic Acid [2″-(2′″-oxodihydrofuran-3′″-ylidene)-1″-(2″″-oxopyrrolidin-3″″-ylmethyl)ethyl]amide] | >6 | 
18 | Cc1cc(CCCCCCCOc2ccc(C3=NCCO3)cc2)on1 [WIN 51711, reference compound] | >77 | 
19 | Cc1cc(CCCCCCCOc2ccc(C3=N[C@@H](C)CO3)cc2)on1 [WIN 52084, reference compound] | >143 | 
20 | Cc1cc(CCCCCOc2c(Cl)cc(C3=NCCO3)cc2Cl)on1 [WIN 54954, reference compound] | >30 | 
